Anti-infective test results gathered from many reports (values: NIAID ChemDB through PubChem).

All rows: growth or infection tests

Percent inhibition refers to the dose given; in toxicity tests it is the harm to the cells. A number after MIC or MFC names an inhibition level or a share of isolates. Blank or dashed fields: not listed here. a–b is a range or a potency band. Lines come from different laboratories, so protocols vary. ECn is the concentration giving n% inhibition of infection, replication or growth.

SMILES	agent	strain or isolate	cell line	method	measure	dose	value
Oc1ccccc1N=Cc1cccc(O)c1O	Cryptococcus neoformans	ATCC 62066	-	-	MIC99	-	2 µg/mL
CCC(CC)[C@H](NC(C)=O)[C@@H]1[C@H](O)[C@@H](C(=O)O)C[C@H]1N=C(N)N	Influenza A virus	Influenza A/Shandong/09/93 (H3N2)	MDCK	-	EC50	-	0.17 µM
Cc1cc(-c2ccc(N=Nc3c(N)c(S(=O)(=O)O)cc4cc(S(=O)(=O)O)ccc34)c(C)c2)ccc1N=Nc1c(N)ccc2cc(S(=O)(=O)O)ccc12	Rhinovirus	-	Human amnion AV3 cells	cytopathic effect	inhibition	5 µg/mL	0%
Cc1nc(NCCCCNc2ccnc3cc(Cl)ccc23)nc(-c2ccccc2)c1C(=O)OC(C)C	Cryptococcus gattii	23/10993	-	-	MIC99	-	5.7 µg/mL
COc1ccc(-n2c(C(=O)NC(C)c3ccc(F)cc3)c3n(c2=O)CCN(C(=O)c2ccc(Br)c(Cl)c2)C3)cc1	Hepatitis B virus	-	HepG2.117	PCR	EC50	-	0.1–0.5 µM
O=C(Nc1ccc2c(O)c(N=Nc3ccc(N=Nc4ccc(S(=O)(=O)O)cc4)cc3)c(S(=O)(=O)O)cc2c1)c1ccccc1	Herpes simplex virus	-	Human amnion AV3 cells	cytopathic effect	inhibition	50 µg/mL	40%
COc1ccc(CNC(=O)c2c3n(c(=O)n2-c2ccccc2)CCN(C(=O)c2ccc(Br)c(Cl)c2)C3)c(C)c1	Hepatitis B virus	-	HepG2.117	PCR	EC50	-	0.1–0.5 µM
O=S(=O)([O-])c1ccc(NS(=O)(=O)c2ccccc2)c2c(S(=O)(=O)[O-])cccc12	Adenovirus	TYPE 3	Human amnion AV3 cells	cytopathic effect	inhibition	5 µg/mL	10%
C[C@@H](NC(=O)c1c2n(c(=O)n1-c1ccc(OC3CCC3)cc1)CCN(C(=O)c1ccc(Br)c(Cl)c1)C2)c1ccccc1	Hepatitis B virus	-	HepG2.117	PCR	EC50	-	0.1–0.5 µM
CCO/N=C/c1ccc(OCCC2CCN(c3ccc(Cl)nn3)CC2)cc1	Rhinovirus	6258-CV44 (ICAM-1 receptor group 64)	KB	neutral red	EC50	-	>7.474 µM
Oc1cccc(C=Nc2ccccc2O)c1	Cryptococcus neoformans	F-10	-	broth dilution	MIC	-	8 µg/mL
O=S(=O)(O)c1ccc(N=Nc2c(O)ccc3cc(S(=O)(=O)O)ccc23)cc1	Rhinovirus	-	Human embryonic lung cells	cytopathic effect	inhibition	10 µg/mL	10%
Nc1nc(=O)n([C@@H]2O[C@H](CO)[C@@H](O)[C@@H]2F)cc1I	Varicella zoster virus	YS	HELF	plaque count	inhibition	0.001 µg/mL	0%
C=CCc1ccc(O)c(OC)c1	Candida tropicalis	2833	-	turbidity	MIC90	-	475 µg/mL
O=C(NCc1ccccc1-c1cccnn1)c1c2n(c(=O)n1-c1ccc(OCC(F)(F)F)cc1)CCN(C(=O)c1ccc(Br)c(Cl)c1)C2	Hepatitis B virus	-	HepG2.117	PCR	EC50	-	<0.1 µM
Oc1ccccc1N=Cc1ccccc1	Cryptococcus neoformans	ATCC 62066	-	broth dilution	MIC	-	2 µg/mL
CCOC(=O)/C=C/[C@H](C[C@@H]1CCNC1=O)NC(=O)[C@@H](CC(=O)[C@@H](NC(=O)c1cc(C)on1)C(C)C)Cc1ccc(F)cc1	Rhinovirus	Isolate 8	OHIO HELA-I	cytopathic effect / visual reading	EC50	-	0.04 µg/mL
O=c1[nH]c(=O)n([C@H]2C[C@H](O)[C@@H](CO)O2)cc1I	Varicella zoster virus	Asahikawa	HELF	plaque count	inhibition	0.1 µg/mL	6%
Nc1ncnc2c1ncn2C=C1CC1CO	Human cytomegalovirus	VR6189 (ganciclovir-susceptible)	-	plaque count	EC50	-	1.8 µM
CCOC(=O)c1c(C)nc(OCCCNc2ccnc3cc(Cl)ccc23)nc1-c1ccccc1	Cryptococcus gattii	LMM 818	-	-	MIC99	-	11.3 µg/mL
CCc1cn([C@@H]2O[C@H](CO)[C@@H](O)[C@@H]2O)c(=O)[nH]c1=O	Varicella zoster virus	HIRAI	HELF	plaque count	inhibition	1000 µg/mL	62%
Nc1c(S(=O)(=O)[O-])cc2cc(S(=O)(=O)[O-])ccc2c1O	Adenovirus	TYPE 3	Human amnion AV3 cells	cytopathic effect	inhibition	5 µg/mL	0%
Cc1nc(NCCCCNc2ccnc3cc(Cl)ccc23)nc(-c2ccccc2[N+](=O)[O-])c1C(=O)OC(C)C	Cryptococcus neoformans	WP	-	-	MIC99	-	5.7 µg/mL
C=Cc1cn([C@@H]2O[C@H](CO)[C@@H](O)[C@@H]2O)c(=O)[nH]c1=O	Varicella zoster virus	YS	HELF	plaque count	inhibition	1 µg/mL	44%
O=S(=O)([O-])c1ccc2c(S(=O)(=O)[O-])cc(S(=O)(=O)[O-])cc2c1	Adenovirus	TYPE 3	Human embryonic lung cells	cytopathic effect	inhibition	50 µg/mL	80%

The last 2 rows once more:

SMILES | agent | strain or isolate | cell line | method | measure | dose | value
C=Cc1cn([C@@H]2O[C@H](CO)[C@@H](O)[C@@H]2O)c(=O)[nH]c1=O | Varicella zoster virus | YS | HELF | plaque count | inhibition | 1 µg/mL | 44%
O=S(=O)([O-])c1ccc2c(S(=O)(=O)[O-])cc(S(=O)(=O)[O-])cc2c1 | Adenovirus | TYPE 3 | Human embryonic lung cells | cytopathic effect | inhibition | 50 µg/mL | 80%